# Reference: PMC10222646 (Microorganisms, 2023)
# Columns and labels:
# human erythrocytes = test: Permeability and stability in human erythrocytes (RBC and iRBC)
# [1] = test system: macrophage-like cells differentiated from THP-1; test: MTT cytotoxicity assay, macrophage derived from THP-1; conditions: read-out: LC50, 72 h
Compound,"total cellular arsenic levels in RBC and iRBC (human erythrocytes; 100 µM AST, 48 h, control subtracted, Figure 6 inset)",predominant arsenic species in the culture medium of erythrocytes (human erythrocytes; HPLC-ICP-MS),uptake by erythrocytes (human erythrocytes; regardless of malaria infection),CC50 [1] [µM]
"C[As](=O)(O)CC[C@H](N)C(=O)O [AST, 2-amino-4-(hydroxymethylarsinoyl)butanoate]",up to 0.006 nmol/mg dry weight,nearly exclusively AST,took up little AST,
Sodium (meta)arsenite,,,,100
